Only a part is listed here, and it is no random draw. Records with an inconclusive call do not appear. The source made the active and inactive calls. Cut-off read from the data, not from the text of the source: active = inhibition above about 35% (passing the limit was not always enough); inconclusive = no clear call, values can overlap the other calls.
tested on: Botulinum neurotoxin type F light chain protease (Clostridium botulinum); assay: BoNT/F light chain protease inhibitors, primary screen, biochemical, flow cytometry, MLPCN library (AID 588497); conditions: Multiplex microsphere protease cleavage assay, at 10 µM, stronger effect = higher value; note: plate controls were buffer without enzyme for full effect and enzyme alone for no effect

| Structure (SMILES) | inhibition |
| --- | --- |
| CN(C(=O)Cc1ccc(Cl)c(Cl)c1)[C@H]1CC[C@@]2(CCCO2)C[C@@H]1N1CCCC1 | inactive: -2% |
| NC(=O)Nc1ccc([As](=O)(O)O)cc1 | inactive: -8.1% |
| O=C(O)COc1ccc([As](=O)(O)O)cc1[N+](=O)[O-] | inactive: 12.9% |
| Nc1ccccc1[As](=O)(O)c1ccccc1 | inactive: 2% |
| CCOP1(=S)c2c(C)nn(CCC#N)c2N=C(c2ccccc2F)N1C (stereo not drawn) | inactive: 2% |
| O=P(Nc1nccs1)(Oc1ccccc1)Oc1ccccc1 | inactive: -0.4% |
| O=P(Nc1nccs1)(c1ccccc1)c1nc2ccccc2s1 (stereo not drawn) | inactive: 6% |
| Nc1cccc([As](=O)(O)c2ccccc2)c1 | inactive: -1.3% |
| Cc1ccc(OCC(=O)OC2CN3CCC2CC3)cc1 (stereo not drawn) | inactive: -24% |
| O=[As](O)(c1cccs1)c1cccs1 | inactive: -2.6% |
| NS(=O)(=O)c1cccc(NC(=O)COC(=O)C(O)(c2ccccc2)c2ccccc2)c1 | inactive: -3.8% |
| O=P1(Nc2ccc(Br)cn2)COc2ccccc2OC1 | inactive: 0.9% |
| Cc1ccc(S(=O)(=O)N(CCCN)CCCc2c(C)nc(N)[nH]c2=O)cc1 | inactive: -5.1% |
| O=P1(Nc2ncccn2)COc2ccccc2OC1 | inactive: -11.6% |
| CN(C)C1(CNC(=O)c2ccc(S(C)(=O)=O)cc2)CCCCC1 | inactive: -6.6% |
| O=C(/C=C/c1ccccc1)OC1CN2CCC1CC2 (stereo not drawn) | inactive: -0.4% |
| CCCC1OP(=O)(Nc2ccccc2)OCC1CC (stereo not drawn) | inactive: 8.8% |
| Cc1nn(-c2ccccc2)c2c1P(=O)(N1CCOCC1)N(C)C(c1ccccc1)=N2 (stereo not drawn) | inactive: -8.5% |
| Cc1ccc(C(=O)OC2CN3CCC2CC3)cc1 (stereo not drawn) | inactive: 16.2% |
| CC1CCC(C(C)C)C(OP(=O)(Nc2ccccn2)c2ccccc2)C1 (stereo not drawn) | inactive: -1.7% |
| CN(C(=O)Cc1ccc(Cl)c(Cl)c1)[C@@H]1CCCC[C@H]1N1CCCC1 | inactive: 5.4% |
| CC(C)/C=N\N=C(\N)N[N+](=O)[O-] | inactive: 5.2% |
| CC1(CBr)Cn2c(nc3ccccc3c2=O)S1 (stereo not drawn) | inactive: -8.4% |

| Structure (SMILES) | inhibition |
| --- | --- |
| O=P1(N(CCCl)CCCl)NCCC(C(F)(F)F)O1 (stereo not drawn) | inactive: -1.4% |
| CC(C)(C)C(=O)NC(Sc1ncccn1)C(Cl)(Cl)Cl (stereo not drawn) | inactive: -2.5% |
| CCC1=CC2Cc3nc4ccc(Cl)cc4c(N)c3C(C1)C2 (stereo not drawn) | inactive: -11.6% |
| O=P1(Nc2ccccn2)COc2ccccc2OC1 | inactive: 14.2% |
| CCOP(=O)(NC(=NC(C)c1ccccc1)NC(C)c1ccccc1)OCC (stereo not drawn) | inactive: -11.3% |
| CCOP(=O)(Nc1ccc(C)cn1)OCC | inactive: -4.1% |
| CN(CCCl)Cc1cc(Cl)c(NC2=NCCN2)c(Cl)c1 | inactive: -4.2% |
| CCC(C)N(CC(C)C)C(=S)SC(NC(C)=O)C(Cl)(Cl)Cl (stereo not drawn) | inactive: -38% |
| CSc1ccc(Nc2c([N+](=O)[O-])cc([N+](=O)[O-])cc2[N+](=O)[O-])cc1 | inactive: -13.5% |
| O=C(O)C(=O)c1ccc(N(CCCl)CCCl)cc1 | inactive: -4.5% |
| O=C(COc1ccccc1)OC1CN2CCC1CC2 (stereo not drawn) | inactive: 2.9% |
| COP1(=S)c2c(C)nn(CCC#N)c2N=C(c2ccc(F)cc2)N1C (stereo not drawn) | inactive: -6% |
| COC(=O)C1(C)COP(=O)(N2CCCC2)OC1 (stereo not drawn) | inactive: -3.5% |
| Cc1cc(SC(NC=O)C(Cl)(Cl)Cl)ncn1 (stereo not drawn) | inactive: -1.5% |
| O=P(Nc1ccccn1)(c1cccc2ccccc12)c1cccc2ccccc12 | inactive: -0.2% |
| CCOC(=O)Nc1cccc([As](=O)(O)O)c1 | inactive: 0.3% |
| COP(=O)(OC)N1CC1c1ccccc1 (stereo not drawn) | inactive: -2.6% |
| CCCCOc1ccc(C(=O)NCC2(N3CCCCC3)CCCCC2)cc1OC | inactive: 1.5% |
| Cc1cc(SC(NC(=O)c2ccccc2)C(Cl)(Cl)Cl)nc(C(C)C)n1 (stereo not drawn) | inactive: 6.8% |
| O=C(O)C(O)c1ccc(N(CCCl)CCCl)cc1 (stereo not drawn) | inactive: -0.7% |
| CCOC(=O)Nc1ccc([As](=O)(O)O)c(O)c1 | inactive: -1.7% |
| CC1CCNP(=O)(N(CCCl)CCCl)O1 (stereo not drawn) | inactive: -3.2% |
| CC(C)NC(=O)NP(=O)(Oc1ccccc1)Oc1ccccc1 | inactive: -2.6% |

| Structure (SMILES) | inhibition |
| --- | --- |
| CCN(CC)C(=S)SC(NC=O)C(Cl)(Cl)Cl (stereo not drawn) | inactive: -6.8% |
| O=C(OC1CN2CCC1CC2)c1cccc2[nH]cnc12 (stereo not drawn) | inactive: -0.4% |
| O=[N+]([O-])c1cc([N+](=O)[O-])c(-c2ccn[nH]2)s1 | inactive: -7.1% |
| ClCCSc1nnc(-c2cccnc2)o1 | inactive: 3.3% |
| COC(=O)C1(C)COP(=O)(N2CCCCCC2)OC1 (stereo not drawn) | inactive: 7.4% |
| CC(C)c1ccc(OP(=O)(Nc2ccccn2)Oc2ccccc2F)cc1 (stereo not drawn) | inactive: -2.2% |
| Cc1ccc(OP(=O)(Nc2ccc([N+](=O)[O-])cn2)Oc2ccc(C)cc2)cc1 | inactive: -16% |
| [N-]=[N+]=NC1CCCCC1NC(=O)c1cc([N+](=O)[O-])cc([N+](=O)[O-])c1 (stereo not drawn) | inactive: -6.4% |
| Cc1ccc2nc3c(c(C)c2c1)CC(C(Cl)Cl)S3 (stereo not drawn) | inactive: 2.2% |
| O=[As](O)(c1ccc(O)cc1)c1ccccc1O | inactive: -0.2% |
| C[As](=O)(O)c1cccc(C(=O)O)c1 | inactive: 20.4% |
| O=[N+]([O-])c1ccc(-c2cc([N+](=O)[O-])c(O)c([N+](=O)[O-])c2)cc1 | inactive: 4.1% |
| COc1cc(C(=O)NCC2(N3CCOCC3)CCCCC2)ccc1OCC(C)C | inactive: 2% |
| O=[N+]([O-])c1cc(Oc2ccc([N+](=O)[O-])cc2C(F)(F)F)cc([N+](=O)[O-])c1 | inactive: -2.9% |
| COc1ccc(N/C(=N/P(=O)(N2CCOCC2)N2CCOCC2)N2CCOCC2)cc1 | inactive: 3.2% |
| O=P1(N(CCCl)CCCl)OCCCN1CCCl (stereo not drawn) | inactive: -2.1% |
| O=P1(N(CCCl)CCCl)Nc2ccccc2N1 | inactive: -6.4% |
| COc1ccc2nc(NP(=O)(c3ccccc3)c3ccccc3)sc2c1 | inactive: -4.6% |
| COc1cc(I)ccc1[As](=O)(O)O | inactive: -3.2% |
| Cc1c2c(nc3ccccc13)SC(C(Cl)Cl)C2 (stereo not drawn) | inactive: -2.7% |
| O=C(OC1CN2CCC1CC2)C12CC3CC(CC(C3)C1)C2 (stereo not drawn) | inactive: 5.6% |
| Cc1cc(=O)[nH]c(N[N+](=O)[O-])n1 | inactive: 0% |

From PubChem BioAssay AID588497 (NMMLSC, 2011)
